Compound potency records, mixed from different reports. Data source: NIAID ChemDB in PubChem.

All rows: toxicity to cultured cells; cells: Huh7; endpoint: CC50

Blank or dashed fields: not listed here.

structure | method | value
CCOc1ncc2c(Nc3cc(C)ccc3Sc3ccc(O)cc3)ncnc2n1 | MTT | 29.7 µM
Nc1nc(N2CCOCC2)c2nc(-c3cccc(OC(F)(F)F)c3)cnc2n1 | - | <10 µM
CNC(=O)c1ccc(-c2ccc3nc(N)nc(OC(C)C)c3n2)cc1Cl | - | >20 µM
COCCOC(=O)N1CCN(c2nc(N)nc3ncc(-c4ccc(OC)c(OC)c4)nc23)CC1 | ATP | 10–20 µM
Cc1ccc(Sc2ccccc2)c(Nc2ncnc3nc(C(C)C)ccc23)c1 | MTT | 8 µM
COc1ccc(-c2cnc3nc(N)nc(N4CCN(C(=O)Oc5ccc(C)cc5)CC4)c3n2)cc1OC | ATP | <10 µM
CN(C)[C@@H](C(=O)N1CCC[C@H]1C(=O)Nc1ccc(C#Cc2ccc(NC(=O)[C@@H]3CCCN3C(=O)[C@@H](c3ccccc3)N(C)C)cc2)cc1)c1ccccc1 | resazurin | 5.39 µM
N#Cc1c(Nc2cccc(Br)n2)s[nH]c1=O | - | >50 µM
CCOc1nc(N)nc2ccc(-c3ccc(NS(=O)(=O)CC)cc3)nc12 | - | >20 µM
CC(=O)N(C)[C@H](C(=O)N1CCC[C@H]1C(=O)Nc1ccc(C#Cc2ccc(NC(=O)[C@@H]3CCCN3C(=O)[C@H](c3ccccc3)N(C)C(C)=O)cc2)cc1)c1ccccc1 | resazurin | >10 µM
CCOc1nc(N)nc2ccc(-c3cccc(NS(=O)(=O)CC)c3)nc12 | - | >20 µM
COc1ncc2c(Nc3cc(C)ccc3Sc3ccc(O)cc3)ncnc2n1 | MTT | >8 µM
COc1ccc(-c2cnc3nc(N)nc(N4CCN(C(=O)Nc5ccc(C#N)cc5)CC4)c3n2)cc1OC | ATP | >20 µM
N#Cc1c(Nc2ccc(Br)c(C(F)(F)F)c2)s[nH]c1=O | - | >50 µM
CCCOc1nc(N)nc2ncc(-c3ccc(F)cc3)nc12 | - | >20 µM
Nc1nc(O[C@H]2CCOC2)c2nc(-c3ccc(C(=O)NCCN4CCCC4)cc3)ccc2n1 | - | 10–20 µM
Nc1nc(N2CCOCC2)c2nc(-c3ccsc3)cnc2n1 | - | >20 µM
N#Cc1c(Nc2ccccc2Cl)s[nH]c1=O | - | >50 µM
Nc1nc(N2CCOCC2)c2nc(-c3c(Cl)cccc3Cl)cnc2n1 | - | 10–20 µM
CCN(C)C(C(=O)N1CCC[C@H]1C(=O)Nc1ccc(C#Cc2ccc(NC(=O)[C@@H]3CCCN3C(=O)C(c3ccccc3)N(C)CC)cc2)cc1)c1ccccc1 | resazurin | 4.75 µM
CCOc1nc(N)nc2ccc(-c3ccc(C(=O)NC(C)C)cc3)nc12 | - | >20 µM
CN(C)[C@@H](Cc1ccccc1)C(=O)N1CCC[C@H]1C(=O)Nc1ccc(C#Cc2ccc(NC(=O)[C@@H]3CCCN3C(=O)[C@H](Cc3ccccc3)N(C)C)cc2)cc1 | resazurin | 5.82 µM
N#Cc1c(Nc2ccc([N+](=O)[O-])cc2)s[nH]c1=O | - | >50 µM
COc1ccc(-c2cnc3nc(N)nc(N4CCN(CC5OCCO5)CC4)c3n2)cc1OC | ATP | >20 µM
COCCNc1nc(N)nc2ccc(-c3ccc(NC(=O)C(C)C)cc3)nc12 | - | 10–20 µM
COc1ccc(-c2cnc3nc(N)nc(N4CCN(C(=O)N(C)c5ccccc5)CC4)c3n2)cc1OC | ATP | <10 µM
CC(C)N1CCC(NC(=O)c2ccc(-c3ccc4nc(N)nc(O[C@H]5CCOC5)c4n3)cc2)CC1 | - | >20 µM
COc1ccc(C)cc1Nc1s[nH]c(=O)c1C#N | - | >50 µM
CCc1ccc2c(Nc3cc(C)ccc3Sc3ccc(NC(C)=O)cc3)ncnc2n1 | MTT | >12.5 µM
Nc1nc(N2CCOCC2)c2nc(-c3cccnc3)cnc2n1 | - | 10–20 µM
COc1ccc(-c2cnc3nc(N)nc(N4CCN(C(=O)Cc5ccc(Cl)cc5)CC4)c3n2)cc1OC | ATP | <10 µM
N#Cc1c(Nc2cc(Cl)cc(Cl)c2)s[nH]c1=O | - | >50 µM
Nc1nc(N2CCOCC2)c2nc(-c3ccc(C(F)(F)F)cc3Cl)cnc2n1 | - | 10–20 µM
COc1ccc(-c2cnc3nc(N)nc(N4CCN(Cc5ccccn5)CC4)c3n2)cc1OC | ATP | 10–20 µM
CCOc1nc(N)nc2ccc(-c3cccc(NS(=O)(=O)CC(F)(F)F)c3)nc12 | - | >20 µM
CCc1ccc2c(Nc3cc(C)ccc3Sc3ccccc3)ncnc2n1 | MTT | 22.7 µM
CN1CCN([C@@H](C(=O)N2CCC[C@H]2C(=O)Nc2ccc(C#Cc3ccc(NC(=O)[C@@H]4CCCN4C(=O)[C@@H](c4ccccc4)N4CCN(C)CC4)cc3)cc2)c2ccccc2)CC1 | resazurin | 6.02 µM
CC(C)(N)C(=O)Nc1ccc(-c2ccc3nc(N)nc(O[C@@H]4CCOC4)c3n2)cc1 | - | 10–20 µM
CCCCCOc1ccc(C(=O)N2CCN(c3nc(N)nc4ncc(-c5ccc(OC)c(OC)c5)nc34)CC2)cc1 | ATP | <10 µM
CC(C)C(=O)N[C@@H](C(=O)N1CCC[C@H]1C(=O)Nc1ccc(C#Cc2ccc(NC(=O)[C@@H]3CCCN3C(=O)[C@H](NC(=O)C(C)C)c3ccccc3)cc2)cc1)c1ccccc1 | resazurin | >10 µM
CC(=O)Nc1ccc(Sc2ccc(C)cc2Nc2ncnc3nc(C4CC4)ccc23)cc1 | MTT | 29.8 µM
COc1ccc(Nc2s[nH]c(=O)c2C#N)cc1 | - | >50 µM
CN(C)[C@H](C(=O)N1CCC[C@H]1C(=O)Nc1ccc(C#Cc2ccc(NC(=O)[C@@H]3CCCN3C(=O)[C@H](c3ccccc3)N(C)C)cc2)cc1)c1ccccc1 | resazurin | 2.3 µM

The last 2 rows once more:

structure | method | value
COc1ccc(Nc2s[nH]c(=O)c2C#N)cc1 | - | >50 µM
CN(C)[C@H](C(=O)N1CCC[C@H]1C(=O)Nc1ccc(C#Cc2ccc(NC(=O)[C@@H]3CCCN3C(=O)[C@H](c3ccccc3)N(C)C)cc2)cc1)c1ccccc1 | resazurin | 2.3 µM

CCn: concentration that lowers growth or viability of the cells by n%. a–b is a range or a potency band. Lines come from different laboratories, so protocols vary.